Compound potency records, mixed from different reports. Data source: NIAID ChemDB in PubChem.

Shared fields: enzyme or target tests; species: Herpes simplex virus 1; target: DNA polymerase; measure: IC50

ICn is the concentration giving n% inhibition. Conditions beyond the fields shown may differ between rows.

compound,result
O=C(O)CP(=O)(O)O,1.3 µM
O=C(O)CP(=O)(O)c1ccccc1,200 µg/mL
CCCCCCCCCC(C(=O)O)P(=O)(O)O,10 µM
COC(=O)[C@@H]1[C@H](O)[C@H](C)C(O)[C@H](C)/C=C\C=C(/C)C(=O)Nc2c(C)c(OC(C)=O)c3c(c2O)C(=O)C(C)=C2OCOC(=C23)/C(C)=C/[C@@](C)(O)[C@H](O)[C@@H](C)[C@H]1OC(C)=O,110 µM
CC(C)(C)OC(=O)CP(=O)(O)O,3.9 µg/mL
O=C(O)C(Br)P(=O)(O)O,6 µM
CC(O)(C(=O)O)P(=O)(O)O,>500 µM
CC(F)(C(=O)O)P(=O)(O)O,>100 µM
CCCCCCOP(=O)(O)CC(=O)O,~166 µg/mL
O=P(O)(O)CP(=O)(O)O,>500 µM
CC(Br)(C(=O)O)P(=O)(O)O,>100 µM
O=P(O)(O)P(=O)(O)O,150 µM
COc1ccc(P(=O)(O)CC(=O)O)cc1,150 µg/mL
O=C(O)C(=O)O,115 µM
O=C(O)C(Cl)P(=O)(O)O,3.2 µM

The last 2 rows once more:

compound | result
O=C(O)C(=O)O | 115 µM
O=C(O)C(Cl)P(=O)(O)O | 3.2 µM